Laboratory results published in ChEMBL document CHEMBL3797190, “Development of 3,5-Dinitrobenzylsulfanyl-1,3,4-oxadiazoles and Thiadiazoles as Selective Antitubercular Agents Active Against Replicating and Nonreplicating Mycobacterium tuberculosis” (J Med Chem, 2016).

Key:
[1] = Cytotoxicity against MDCK2-MDR1 cells assessed as cell viability at 20 uM after 48 hrs by MTS assay; details: dog, mdck-ii
HeLa [2] = experiment: Cytotoxicity against human HeLa cells assessed as cell viability at 20 uM after 48 hrs by MTS assay; assay type: cell-based
HeLa [3] = experiment: Cytotoxicity against human HeLa cells assessed as cell viability at 20 uM after 24 hrs by MTS assay; assay type: cell-based
[4] = Cytotoxicity against human HuH7 cells assessed as cell viability after 24 hrs by MTS assay; assay type: cell-based; details: huh-7
[5] = Cytotoxicity against MDCK2-MDR1 cells assessed as cell viability after 24 hrs by MTS assay; details: mdck-ii
[6] = Cytotoxicity against human HuH7 cells assessed as cell viability at 20 uM after 48 hrs by MTS assay; assay type: cell-based; details: huh-7, 48 h
[7] = Cytotoxicity against human HuH7 cells assessed as cell viability after 48 hrs by MTS assay; assay type: cell-based; details: huh-7
HeLa [8] = experiment: Cytotoxicity against human HeLa cells assessed as cell viability after 48 hrs by MTS assay; assay type: cell-based
[9] = Cytotoxicity against human HuH7 cells assessed as cell viability at 20 uM after 24 hrs by MTS assay; assay type: cell-based; details: huh-7, 24 h
HeLa [10] = experiment: Cytotoxicity against human HeLa cells assessed as cell viability after 24 hrs by MTS assay; assay type: cell-based
[11] = Cytotoxicity against MDCK2-MDR1 cells assessed as cell viability after 48 hrs by MTS assay; details: mdck-ii
[12] = Cytotoxicity against MDCK2-MDR1 cells assessed as cell viability at 20 uM after 24 hrs by MTS assay; details: dog, mdck-ii
Hepatocyte [13] = experiment: Cytotoxicity against primary human hepatocytes assessed as cell viability at 20 uM after 48 hrs by MTS assay; assay type: cell-based
Hepatocyte [14] = experiment: Cytotoxicity against primary human hepatocytes assessed as cell viability after 48 hrs by MTS assay; assay type: cell-based
Salmonella typhimurium [15] = experiment: Mutagenic activity in Salmonella typhimurium TA98 assessed as reverse mutation at 30 uM by Ames test; details: salmonella enterica subsp. enterica serovar typhimurium
Salmonella typhimurium [16] = experiment: Mutagenic activity in Salmonella typhimurium TA100 assessed as reverse mutation at 30 uM by Ames test; details: salmonella enterica subsp. enterica serovar typhimurium

| SMILES | Activity [1] [%] | Activity (HeLa [2]) [%] | Activity (HeLa [3]) [%] | IC50 [4] [µM] | IC50 [5] [µM] | Activity [6] [%] | IC50 [7] [µM] | IC50 (HeLa [8]) [µM] | Activity [9] [%] | IC50 (HeLa [10]) [µM] | IC50 [11] [µM] | Activity [12] [%] | Activity (Hepatocyte [13]) [%] | IC50 (Hepatocyte [14]) [µM] | Activity (Salmonella typhimurium [15]) | Activity (Salmonella typhimurium [16]) |
| --- | --- | --- | --- | --- | --- | --- | --- | --- | --- | --- | --- | --- | --- | --- | --- | --- |
| O=[N+]([O-])c1ccc(-c2nnc(SCc3ccc([N+](=O)[O-])cc3[N+](=O)[O-])o2)cc1 | 120 | 117 | 90.1 | > 20 | > 20 | 99.6 | > 20 | > 20 | 107 | > 20 | > 20 | 85.2 | – | – | – | – |
| O=[N+]([O-])c1ccc(-c2nnc(SCc3cc([N+](=O)[O-])cc([N+](=O)[O-])c3)s2)cc1 | 104 | 120 | 89.2 | > 20 | > 20 | 97.9 | > 20 | > 20 | 99.5 | > 20 | > 20 | 75 | – | – | – | – |
| O=[N+]([O-])c1ccc(-c2nnc(SCc3cc([N+](=O)[O-])cc([N+](=O)[O-])c3)o2)cc1 | 97.4 | 109 | 93.6 | > 20 | > 20 | 111 | > 20 | > 20 | 101 | > 20 | > 20 | 82 | 107 | > 20 | Non-toxic | Toxic |
